Experimental data taken from patent US7910574B2, “Treatments for the control of schistosomiasis” (Illinois State University, priority 2007, dated 2011).

How the values were obtained:
adult S. mansoni worms = assay: Inhibitor studies on cultured adult worms (motility, mortality); settings: freshly cultured S. mansoni worms
[1] = biological target: parasite TGR (thioredoxin reductase activity) (Schistosoma mansoni, UniProt Q962Y6); assay: Thioredoxin reductase activity of TGR in homogenates of treated cultured worms; settings: 50 μM, 18 hrs treatment of cultured worms
[2] = biological target: parasite TGR (GSH reductase activity) (Schistosoma mansoni, UniProt Q962Y6); assay: Glutathione reductase activity of TGR in homogenates of treated cultured worms; settings: 50 μM, 18 hrs treatment of cultured worms

(N-benzothiazol-2-yl-phenyl-phosphoryl)-1,3-thiazol-2-amine
time to kill the worms (adult S. mansoni worms; 25 μM): 96 h | time to kill the worms (adult S. mansoni worms; 50 μM): 24 h | reduction of thioredoxin reductase activity of parasite TGR vs carrier control [1]: 69% | reduction of GSH reductase activity of parasite TGR vs carrier control [2]: 59%
